Earlier results as cited in article PMC12020373, “Improving pKa Predictions with Reparameterized Force Fields and Free Energy Calculations” (2025).

Experiments:
Cys403 [1] = target: Cys403 (UniProt position 403, RPVIACRAGVG)
Cys403 [2] = target: Cys403 (UniProt position 403, RPVINCRAGVG)

Substance | pKa (Cys403 [1]) | pKa (Cys403 [2])
protein tyrosine phosphatase YopH H402A (Yersinia (species not stated); H402A) | 7.35 | –
protein tyrosine phosphatase YopH H402N (Yersinia (species not stated); H402N) | – | 5.99
